From patent publication US4670540A (Ajinomoto Co., Inc., priority 1984, dated 1987) come the findings set out here.

Some peptides are written in HELM: one residue between dots, names in brackets for other building blocks, links after the first $.

The nature of the data set: general procedure: solution-phase peptide synthesis; WSCI/HOBt.

For “Boc-Ala-Gln-Ser(Bzl)-Gly-Leu-Gly-Asu[Phe-Gly-Gly-Arg(Tos)-Ile-Asp(OChx)-Arg(Tos)-Ile-GlyOH]-Asn-Ser(Bzl)-Phe-Arg(Tos)-Tyr(Cl2 Bzl)-OBzl”, the step yield (late stage modification step) is recorded as 94%. Take “Boc-Ala-Gly-Ser(Bzl)-Gly-Leu-GlyAsu[Phe-Gly-Gly-Arg(Tos)-Ile-Asp(OChx)-Arg(Tos)-Ile-Gly-OPac]-Asn-Ser(Bzl)-Phe-Arg(Tos)-Tyr(Cl2 Bzl)-OBzl”: the step yield (coupling step) was found to be 91%. In turn, “Boc-Phe-Gly-Gly-Arg(Tos)-Ile-Asp(OChx)-Arg(Tos)-Ile-Gly-OPac” yielded a step yield (coupling step) of 95%. With “PEPTIDE1{F.G.G.R.I.D.R.I.G.A.Q.S.G.L.G.[Asu].N.S.F.R.Y}$PEPTIDE1,PEPTIDE1,1:R1-16:R3$$$V2.0”, the step yield by setting is: (late stage modification step, run 1) 95%; (late stage modification step, run 2) 8%.
